Measured values from several laboratories, pooled; numbers as filed in NIAID ChemDB.

All rows: toxicity to cultured cells; cells: CEM; read-out: CC50

CCn: concentration that lowers growth or viability of the cells by n%.

structure,method,value
CCCCCCCCCC(=O)NCC(COP(=O)([O-])OCC[N+](C)(C)C)OCCCCCC,,>100 µM
CC1=NN(c2nc(N)nc(NS(=O)(=O)c3cc(C)c(Cl)cc3S)n2)C(C)(C)C1,,>200 µM
CC(C)(C)CC(C)(C)c1ccc(OCCOP(=O)([O-])OCC[N+](C)(C)Cc2ccccc2)cc1,MTT,>100 µM
Nc1nc2c(ncn2[C@@H]2O[C@H](COP(=O)(O)O)[C@@H](O)[C@H]2O)c(=O)o1,MTT,>500 µg/mL
Nc1ncc(C2C=CC(CO)(CO)C2)c(=O)[nH]1,XTT,99 µM
N#Cc1c(N)nc(N)nc1OCCOCP(=O)(O)O,,≥100 µg/mL
C[C@@H](O)C(C)(C)OC(=O)N[C@@H](Cc1ccccc1)[C@H](O)CNC[C@@H](O)[C@H](Cc1ccccc1)NC(=O)OC(C)(C)C,,>10 µM
Cc1cn([C@H]2C[C@H](N=[N+]=[N-])[C@@H](CO)O2)c(=O)[nH]c1=O,,>100 µM
Nc1nc2c(ncn2C2CC(CO)C2)c(=O)[nH]1,,>425 µM
CNNC(=NS(=O)(=O)c1cc(C#N)c(NNC)cc1S)NNC,,110 µM
CC(C)(C)OC(=O)N[C@@H](Cc1ccccc1)[C@H](O)CNC[C@@H](O)[C@H](Cc1ccccc1)NC(=O)OC(C)(C)CNC=O,,>10 µM
O=c1ccn([C@H]2C=C(F)[C@@H](CO)S2)c(=O)[nH]1,MTT,>100 µM
Cc1cn([C@H]2C=C[C@@H](COP(=O)(O)N(CC(=O)O)CC(=O)O)O2)c(=O)[nH]c1=O,MTT,298 µM
Cc1occc1C(=S)Nc1ccc(Cl)c(C(=O)OC2CCCC2)c1,,4.3 µg/mL
CC(=O)c1cn([C@@H]2O[C@H](CO[Si](C)(C)C(C)(C)C)C3(OS(=O)(=O)C=C3N)[C@H]2O[Si](C)(C)C(C)(C)C)nn1,,>1.1 µM
Cc1cc(S(=O)(=O)Nc2nc(N)nc(N3CCOCC3)n2)c(SCC(=O)O)cc1Cl,,>200 µM
CCC(NC(=O)C1CCC1C(=O)[C@@H](NC(=O)[C@@H](NC(=O)c1cnccn1)C1CCCCC1)C(C)(C)C)C(=O)C(=O)NC1CC1,,>100 µM
CC(C)(C)[Si](C)(C)OC[C@H]1O[C@@H](n2cc(CBr)nn2)[C@H](O[Si](C)(C)C(C)(C)C)C12OS(=O)(=O)C=C2N,,>1.3 µM
Cc1cn([C@H]2C[C@H](F)[C@@H](CO)O2)c(=O)[nH]c1=O,,54 µM
Cc1cc(S(=O)(=O)Nc2nc3ccccc3[nH]2)c(S)cc1Cl,,58.2 µM
CC(C)(C)OC(=O)N[C@@H](Cc1ccccc1)[C@H](O)CNC[C@@H](O)[C@H](Cc1ccccc1)NC(=O)OC(C)(C)CCCO,,>10 µM
Cc1cn([C@H]2C[C@H](N=[N+]=[N-])[C@@H](CN3C(=O)c4c(Cl)c(Cl)c(Cl)c(Cl)c4C3=O)O2)c(=O)[nH]c1=O,,>80 µM
Nc1nc2c(ncn2[C@H]2CC[C@@H](CO)C2)c(=O)o1,MTT,>500 µg/mL
Cc1cn([C@H]2C[C@H](F)[C@@H](CO)O2)c(=O)[nH]c1=O,,117 µM
OC[C@H]1O[C@@H](Sc2nc3cc(Cl)c(Cl)cc3[nH]2)C(O)C1O,,>100 µM
Nc1nc2c(ncn2C2CC=C[C@H]2CO)c(=O)[nH]1,,>100 µM
O=S(=O)(Nc1nnc2c3ccccc3ccn12)c1ccc(F)cc1S,,>200 µM
CCCCCCCCCCCCOCC(COP(=O)([O-])OCC[N+](C)(C)C)OCCCCCCCCCC,,75.7 µM
Cc1cn([C@H]2C[C@H](N=[N+]=[N-])[C@@H](CO)O2)c(=O)[nH]c1=O,,13 µM
Cc1cn([C@H]2C=C[C@@H](COP(=O)(O)N[C@@H](CC(=O)O)C(=O)O)O2)c(=O)[nH]c1=O,MTT,298 µM
O=c1[nH]cnc2c1ncn2[C@H]1C=C(F)[C@@H](CO)S1,MTT,>100 µM
COCCNC(=O)OC(=O)c1c2c(nc3ccccc13)/C(=C\c1ccc(O)cc1)CCC2,trypan blue,>25 µM
Cc1cn([C@@H]2O[C@H](CO)[C@@H](N=[N+]=[N-])[C@@H]2F)c(=O)[nH]c1=O,,2.6 µg/mL
O=c1[nH]cnc2c1ncn2[C@@H]1C=C(F)[C@H](CO)S1,MTT,>100 µM
CC(C)(C)[Si](C)(C)OC[C@H]1O[C@@H](n2cc([Si](C)(C)C)nn2)[C@H](O[Si](C)(C)C(C)(C)C)C12OS(=O)(=O)C=C2N,,>2.8 µM
Nc1ccn([C@@H]2O[C@H](CO)C[C@@H]2F)c(=O)n1,,>23 µg/mL
Cc1cn([C@H]2C[C@H](N=[N+]=[N-])[C@@H](CO)O2)c(=O)[nH]c1=O,,>100 µM
CCCCCCCCCCCCOC(CNC(=O)CCCCCCCCC)COP(=O)([O-])OCC[N+](C)(C)C,,38.9 µM
CN[C@@H]1[C@H](O[C@@H]2OC[C@@H](O)[C@H](O)[C@H]2O)[C@@H](O)[C@H](O[C@H]2c3cc(C)c(C(=O)N[C@H](C)C(=O)O)c(O)c3-c3c(cc4c(c3O)C(=O)c3cc(OC)cc(O)c3C4=O)[C@@H]2O)O[C@@H]1C,,>120 µM
Nc1nc2c(ncn2COC(CO)CO)c(=O)[nH]1,XTT,>10 µM
Nc1ncnc2c1ncn2[C@@H]1C[C@H](OCP(=O)(O)O)CC1(F)F,,>100 µM
O=c1ccn([C@H]2C[C@H](F)[C@@H](CO)O2)c(=O)[nH]1,,>500 µM
Cc1cc(S(=O)(=O)Nc2nc(N)n(-c3ccccc3)n2)c(S)cc1Cl,,>200 µM
CCOP(=O)(CO[C@H]1C[C@@H](n2cnc3c(N)ncnc32)C(F)(F)C1)OCC,,>100 µM
Cc1cn([C@H]2C[C@H](N=[N+]=[N-])[C@@H](CN3C(=O)c4cccc([N+](=O)[O-])c4C3=O)O2)c(=O)[nH]c1=O,,>200 µM
COC(=O)[C@H](C)N[P@@](=O)(OC[C@@H]1C=C[C@H](n2cc(C)c(=O)[nH]c2=O)O1)Oc1ccccc1C,,>250 µM
CC(C)(C)[Si](C)(C)OC[C@H]1O[C@@H](n2ccnn2)[C@H](O[Si](C)(C)C(C)(C)C)C12OS(=O)(=O)C=C2N,,>3.4 µM
O=C(OCC1OC(Sc2nc3cc(Cl)c(Cl)cc3[nH]2)C(OC(=O)c2ccccc2)C1OC(=O)c1ccccc1)c1ccccc1,,>100 µM
CCCCc1cn([C@@H]2O[C@H](CO[Si](C)(C)C(C)(C)C)C3(OS(=O)(=O)C=C3N)[C@H]2O[Si](C)(C)C(C)(C)C)nn1,,>1.5 µM
Cc1cn([C@@H]2O[C@H](CO[Si](C)(C)C(C)(C)C)C3(OS(=O)(=O)C=C3N)[C@H]2O[Si](C)(C)C(C)(C)C)c(=O)n(C)c1=O,,≥100 µg/mL
Cc1cn([C@H]2C[C@H](F)[C@@H](CP(=O)(O)O)O2)c(=S)[nH]c1=O,,>200 µM
O=c1[nH]cc(C2C=CC(CO)(CO)C2)c(=O)[nH]1,XTT,>100 µM
Nc1nc(=O)n([C@@H]2C=C(F)[C@H](CO)S2)cc1F,MTT,>100 µM
Nc1ncnc2c1ncn2[C@@H]1OC[C@@](/C=C/P(=O)(O)O)(CO)[C@@H]1F,MTT,>100 µM
Cc1cc(S(=O)(=O)Nc2nc(N)n(C)n2)c(S)cc1Cl,,>200 µM
O=c1[nH]c(=O)n([C@@H]2O[C@H](CO)[C@@H](O)[C@@H]2F)cc1C12B3B4B5B6B(B3B1B42)B1B5C61,,56.5 µM
CC(C)=CCN1Cc2cc(Cl)cc3[nH]c(=S)n(c23)C[C@@H]1C,,28.4 µM
Cc1cn([C@H]2C=C[C@@H](COP(=O)(O)OP(=O)(O)OP(=O)(O)O)O2)c(=O)[nH]c1=O,,79 µM
Nc1nc2c(ncn2[C@@H]2OC[C@@](/C=C/P(=O)(O)O)(CO)[C@@H]2F)c(=O)[nH]1,MTT,>100 µM
Nc1nc(N)c(Cl)c(OCCOCP(=O)(O)O)n1,,≥100 µg/mL
Nc1nc(=O)n([C@H]2C=C(F)[C@@H](CO)S2)cc1F,MTT,>100 µM
CC(C)(C)CC(C)(C)c1ccc(OCCOP(=O)([O-])OCCC[N+](C)(C)Cc2ccccc2)cc1,MTT,>100 µM
Nc1nc2c(ncn2[C@@H]2C=C(F)[C@H](CO)S2)c(=O)[nH]1,MTT,>100 µM
CC(=O)c1cnnn1[C@@H]1O[C@H](CO[Si](C)(C)C(C)(C)C)C2(OS(=O)(=O)C=C2N)[C@H]1O[Si](C)(C)C(C)(C)C,,>1.1 µM
CCCCCCCCCCCC(=O)NCC(COP(=O)([O-])OCC[N+](C)(C)C)OCCCCCCCCCC,,27.6 µM
COc1ccc(COCC(COCc2ccccc2)OCSc2ccccc2)cc1,,0.05–100 µM
O=c1[nH]cnc2c1ncn2[C@H]1CC[C@@H](CO)O1,MTT,>500 µg/mL
Nc1ncnc2c1ncn2[C@H]1C=C(F)[C@@H](CO)S1,MTT,>100 µM
Cc1cn([C@H]2C[C@H](N=[N+]=[N-])[C@@H](CN3C(=O)c4ccc(C(=O)OCC56CC7CC(CC(C7)C5)C6)cc4C3=O)O2)c(=O)[nH]c1=O,,>160 µM
Cc1c(N)nc(N)nc1OCCOCP(=O)(O)O,,3.4 µg/mL
CCOC(=O)c1cn([C@@H]2O[C@H](CO[Si](C)(C)C(C)(C)C)C3(OS(=O)(=O)C=C3N)[C@H]2O[Si](C)(C)C(C)(C)C)nn1,,>0.28 µM
FCC1CO1,,0.05–100 µM
Cc1cc(S(=O)(=O)Nc2n[nH]c(-c3ccccn3)n2)c(S)cc1Cl,,4.3 µM
Cc1cn([C@H]2C[C@H](N=[N+]=[N-])[C@@H](CO)O2)c(=O)[nH]c1=O,,≥100 µM
CCCCCCCCCCCCCCCCOP(=O)([O-])OCCC[N+](C)(C)Cc1ccccc1,MTT,62.2 µM
Cc1cn([C@H]2C=C[C@@H](CO)O2)c(=O)[nH]c1=O,,>50 µM
O=c1[nH]c(=O)n([C@H]2C[C@H](F)[C@@H](CO)O2)cc1Br,,>500 µM
CCCCCCCCCCCCOC(CNC(=O)CCCCCCCCCCC)COP(=O)([O-])OCC[N+](C)(C)C,,30.3 µM
CC(C)(C)OC(=O)N[C@@H](Cc1ccccc1)[C@H](O)CNC[C@@H](O)[C@@H](N)Cc1ccccc1,,>10 µM
Cc1cn([C@H]2C[C@H](N=[N+]=[N-])[C@@H](CN3C(=O)c4c(Br)c(Br)c(Br)c(Br)c4C3=O)O2)c(=O)[nH]c1=O,,56 µM
CCCCCCCCCCCC(=O)NCC(COP(=O)([O-])OCC[N+](C)(C)C)OCCCCCC,,40.2 µM
CCOCn1c(Cc2ccccc2)c(C(C)C)c(=O)[nH]c1=O,,≥20 µg/mL
CCCCCCCCCCCCCCCCOP(=O)([O-])OCCC[N+](C)(C)C,MTT,6.2 µM
COc1ccc(COCC(O)COCc2ccccc2)cc1,,0.05–100 µM

Repeating the final 10 entries:

structure	method	value
CCCCCCCCCCCCCCCCOP(=O)([O-])OCCC[N+](C)(C)Cc1ccccc1	MTT	62.2 µM
Cc1cn([C@H]2C=C[C@@H](CO)O2)c(=O)[nH]c1=O		>50 µM
O=c1[nH]c(=O)n([C@H]2C[C@H](F)[C@@H](CO)O2)cc1Br		>500 µM
CCCCCCCCCCCCOC(CNC(=O)CCCCCCCCCCC)COP(=O)([O-])OCC[N+](C)(C)C		30.3 µM
CC(C)(C)OC(=O)N[C@@H](Cc1ccccc1)[C@H](O)CNC[C@@H](O)[C@@H](N)Cc1ccccc1		>10 µM
Cc1cn([C@H]2C[C@H](N=[N+]=[N-])[C@@H](CN3C(=O)c4c(Br)c(Br)c(Br)c(Br)c4C3=O)O2)c(=O)[nH]c1=O		56 µM
CCCCCCCCCCCC(=O)NCC(COP(=O)([O-])OCC[N+](C)(C)C)OCCCCCC		40.2 µM
CCOCn1c(Cc2ccccc2)c(C(C)C)c(=O)[nH]c1=O		≥20 µg/mL
CCCCCCCCCCCCCCCCOP(=O)([O-])OCCC[N+](C)(C)C	MTT	6.2 µM
COc1ccc(COCC(O)COCc2ccccc2)cc1		0.05–100 µM

a–b is a range or a potency band. An empty or dashed field is not shown. Neighbouring rows are from separate reports.